The record followed here is ChEMBL document CHEMBL3822423 (J Med Chem, 2016).

For assay [1], the system named is Staphylococcus aureus. The experiment in a line: Antibacterial activity against methicillin resistant Staphylococcus aureus N315 at 0.5 ug/ml incubated for 12 hrs measured after 12 passages.
In assay [2] the test system is Staphylococcus aureus. The experiment in a line: Ratio of MIC measured after 6 passages to MIC measured after 1 passage for methicillin/quinolone-resistant Staphylococcus aureus ATCC 700699.
In assay [3] the test system is Staphylococcus aureus. The experiment in a line: Antibacterial activity against methicillin/quinolone-resistant Staphylococcus aureus ATCC 700699 at 0.5 ug/ml incubated for 12 hrs measured after 7 passages.
Assay [4] relates to Staphylococcus aureus. Put plainly: Antibacterial activity against methicillin/quinolone-resistant Staphylococcus aureus ATCC 700699 measured after 6 passages.
Assay [5] has as its system Staphylococcus aureus. Put plainly: Antibacterial activity against methicillin resistant Staphylococcus aureus N315 measured after 6 passages.
Assay [6] concerns Staphylococcus aureus. Put plainly: Potency index, ratio of chloromycin MIC to compound MIC for methicillin-resistant Staphylococcus aureus N315.
For assay [7], the system named is Staphylococcus aureus. Put plainly: Potency index, ratio of norfloxacin MIC to compound MIC for methicillin-resistant Staphylococcus aureus N315.

In brackets after ≈: the same amount, converted by molar mass.

One may read the MIC as the lowest concentration that inhibits growth of the organism.

On to `CCn1cc(-c2csc(N)n2)c(=O)c2cc(N3CCCC3)c(Cl)cc21`, for which the MIC with Staphylococcus aureus [1] stood at 0.5 µg/mL (≈ 1.33 µM); in the assay on Staphylococcus aureus [3] it was 2 µg/mL (≈ 5.33 µM); in the assay with Staphylococcus aureus [4] it was 512 µg/mL (≈ 1370 µM); in the assay on Staphylococcus aureus [5], 267 µg/mL (≈ 711 µM). The Ratio with Staphylococcus aureus [2] is 32; in the assay with Staphylococcus aureus [6], 27; with Staphylococcus aureus [7], 13.
